Assay results reported in publication PMC4760761.
For at least one entry, the source does not settle the construct or the ends of the probe. Tags and fusion partners may be left off the protein sequences shown.

Biological target: T1, CodY-6His (UniProt A0A0H3GGF1)
T1 sequence (looked up, limits assumed): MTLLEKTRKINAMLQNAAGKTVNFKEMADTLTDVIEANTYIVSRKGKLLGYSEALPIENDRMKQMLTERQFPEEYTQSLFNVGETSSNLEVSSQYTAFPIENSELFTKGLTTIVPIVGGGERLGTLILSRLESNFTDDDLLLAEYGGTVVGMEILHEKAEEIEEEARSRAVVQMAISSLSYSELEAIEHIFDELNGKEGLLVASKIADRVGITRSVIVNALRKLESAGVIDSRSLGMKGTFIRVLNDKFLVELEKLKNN
Experiment: EMSA
Conditions: 10 mM BCAA, apparent Kd; EMSA: 20 mM Tris-Cl pH 8, 50 mM KCl, 2 mM MgCl2, 0.5 mM EDTA, 1 mM DTT, 0.05% NP-40, 5% glycerol, 25 ug/ml salmon sperm DNA, 4 ng DIG-DNA, 15 min room temperature; recombinant protein; protein details: 6xHis; label: DIG; probe letters rebuilt from the primers and the genome

ACAATCACATATCTCTCTATCCTATAGTATTATTGATTTTCTGTTTATTTTTATAATAACAATATATGTTAGTTGTGTAAAGGGAACGCGAGTAGGTCAAAAGGATTGGGTATGAAGAACCTTTTTTTGAGTTAAATAGAAAAATATAAATCGAATAATGAGAAGTTTTCCTTTGATACAGCTGTTACACTGGCTGTTTTTTTATTTTTACACACAATTTCATTTTTTAAAAAAAGTATAGATTTTTTCTGGATTTGGTGTAAAATTTTATATTGCAGTTACAAAAAACACTTTATTGATATATATTTTGAAAAAATGATTTATTTTTGTAATCTGATGAAGGGAGTGAAAGGTGAATTTACCTTACTTGAATGGAATATTTTTTGTCACTTTTAAAAATTATTGTACTTTTGGCAGTACTTGCGGGAATTTCTTATTTTTTAGTTAAGAAAAACAAGCAAGCGAATCGCACGAGAAAAAGCGAAAATGATCTAATAAAG (double strand) [fliN (LMRG_02874) upstream probe]
Kd: 26 nM
